According to publication PMC4310594:
Construct, isoform or probe ends are uncertain for at least one entry. For some of these results: Where a protein sequence is shown, tags need not be part of it.

By UniProt entry, the sequences of proteins in these tests, tags left out. Where a name states a change or a piece, a line headed by the entry shows the natural chain unless it says otherwise.
UniProt A0A0H3GJQ8: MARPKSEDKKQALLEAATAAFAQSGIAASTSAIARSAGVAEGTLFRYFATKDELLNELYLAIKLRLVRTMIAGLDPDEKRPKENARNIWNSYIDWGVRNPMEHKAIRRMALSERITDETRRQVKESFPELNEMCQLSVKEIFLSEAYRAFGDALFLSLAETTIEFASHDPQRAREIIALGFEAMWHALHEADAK

Legend:
RamR = RamR (UniProt A0A0H3GJQ8); test: EMSA; settings: 2 uM RamR, 2 nM pI, shift not perturbed by 1 uM cold sRamA5; recombinant protein; label: 32P (radiolabelled); probe letters rebuilt from the primers and the genome
RamA = target: T1, RamA (UniProt Q48413); test: EMSA; settings: 200 nM RamA, 2 nM DNA; recombinant protein; protein details: His-tag; label: 32P 5' end; probe letters rebuilt from the primers and the genome
T1 sequence (looked up, limits assumed): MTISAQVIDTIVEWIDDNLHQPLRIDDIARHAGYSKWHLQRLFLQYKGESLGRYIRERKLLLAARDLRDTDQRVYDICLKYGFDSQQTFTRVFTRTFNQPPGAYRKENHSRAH

“GCTCTAGACTACTTTTTTCCTCACGCAGGTTTAAACAAACCGCCGATCTTGGCACGTCTGACCAGGTCGCTGCAACGGCGGAACGCAAAAATTGAAAATCGTCTTGACGACTTTCATCGCTTTCCTAATAATGAGTGCGTACTCACTCATAATCAAGTTATATCATAAAGCCTCCGGGATGGGGGCTTTTGTCTGGTCAGGATATGAACCGTGTCACTTTCAGCGTGGTCGCCATCATGTTACTCGCAGCAGCAACGACATTGCCGTTTGTTCTTAATGCCGGTTTTGGTAAGGCGCCGCAGGG (double strand) [pI promoter (romA-ramA)]”: binds (RamR).
“TTAAACTTTGCCCCAGTCACAAATAACCGCATGCTGGCCGTGTCAAACCGGGCGAAACGGACTGTTTGCGTTCGCTATCGCCATAATAAAGCGTGAGTAAAAGAGGTATTGGTCGAGAGGCTGAGGCAAATGTACTGGCTATTTTATCGACAATCGGCCGGGCCGTAGAGGTTAGGTTTATTTATTTATGCATTAAACAGGAAATTTTACGCGTTGCGTCTAATAATAGAGTAGTCCCCAGCGTAAGGGCTGAATTTATCCTGGAATCGGCTTATAATAACGCGCTTTGTGATTGAGTATTACCGCACGAATTGGAAAAATACTACGTGCAGGATCCGCTACTTTATTTCGCGGTTTTTGCTCAGCTATTATTGAGTGAATTAACAGGATTACTATGTCAAATTTACCCAAATTTTCCCGCGCGCTGTTGCACCCGCGTTACTGGCTATTGTGGCTGGGAATTGGCTTTTTGTGGCTGCTGGTGCAATTACCGTATCCGGT (double strand) [lpxL-2 promoter]”: binds (RamA).
“GGCAGTCAGCTTTTTCGTGGCGTCAAAGGCCTTGGTGGAATAGCGCTTCAAAGCGACCGATACGATATCCATAACTCTTCCTCACAGTTTACAGCACCTTACCGGTGCGTTCAGGAGAGGAAGAGTACAGCGAAGATCGCAAAATGATAAGGGTGAAAAATGCGATAACACTTATCGCATTTGGCTGAAAATCAGCGCGGACGCAGGCGCTGCTGGGCCTTTTTACTCAGCTTGTTCACCACCTGATGCCACGAATCGTCAATCAGCTCGGCCAGCAGATCCTCGCTGATATCCTCTCCTGGCACCACCGTGATCCAGTGTTTCTTGTTCATATGGTAGCCGGGTTCGATACTGCGATAAATTTGCTGATTCAGCAGCGACTTCTGCGGCTCGGCCTTGAGATTGACCAGCGCCCGGCCGCGAATAGTCATGGTGATCATAAAGATGCGGCCGTCG (double strand) [nfnB promoter]”: binds (RamA).
“CGTTGGGGAATTTTGCCCGATACTCAATTTCGAGATCGCTAATACTGGCGTCTGACAGCTCCCAAATTTCGTTGAATAAATCTGATTTATTCTTGAAATGCCAGTAGATAGCCCCCCTCGTTACACCCGCAGCTTTTGCAATTGTTGCCAACGAGGTAGATGATACGCCTTGCTGCGAAAACAGACGCAGAGCAACATCCAGAATCAGTTGCCGGGTTTCACGTGCCTGTTGTTTGGTTTTTCGTGCCATAGGTTAATGACTTTACAGAGGTTACGTTTACATACATTTGTGAATGTATGTACCATAGCATGACCATAATAGAAAGACTGTAGTGGGTTTGTGGTTGTTTGAGCCACTGAACATTTTGAAATTGGACACTCGAGGTTTACATATGAACAAAAACAGAGGGTTAACGCCTCTGGCGGTCGTTCTGATGCTCTCAGGCAGC (double strand) [acrA promoter]”: binds (RamA).
